The target in test [1] is HCV NS5B polymerase (His-tagged, C-terminal 21 amino acid deleted NS5B, HC-J4) (Hepatitis C virus genotype 1b, UniProt O92972). Briefly: NS5b polymerase assay (biochemical RdRp assay, 3H-GTP incorporation, SPA beads). Set-up: species or system HCV genotype 1b. The following applies: read-out: NS5B Polymerase Assay IC50.
Test [2] deals with HCV replicon RNA replication in Huh-7 luc/neo (Huh-Luc) cells. Put plainly: HCV replicon assay (stable replicon cell reporter assay, luciferase read-out). The test is classed as cell-based, HCV type 1b. The following applies: incubation of three days, luciferase activity. A general note: A replicon is a self-replicating genome or part of one, used to study replication in cells.

Chains of the proteins cited; added tags and fusions are not shown. Lines headed by an entry give the natural chain unless they say otherwise; changes in a name come on top. A line that says so, or that is headed by a name, gives the form on record, which may keep a tag or linker. Residues count along the entry.
UniProt O92972, 2420-2989 with tags or gaps, stated change not applied: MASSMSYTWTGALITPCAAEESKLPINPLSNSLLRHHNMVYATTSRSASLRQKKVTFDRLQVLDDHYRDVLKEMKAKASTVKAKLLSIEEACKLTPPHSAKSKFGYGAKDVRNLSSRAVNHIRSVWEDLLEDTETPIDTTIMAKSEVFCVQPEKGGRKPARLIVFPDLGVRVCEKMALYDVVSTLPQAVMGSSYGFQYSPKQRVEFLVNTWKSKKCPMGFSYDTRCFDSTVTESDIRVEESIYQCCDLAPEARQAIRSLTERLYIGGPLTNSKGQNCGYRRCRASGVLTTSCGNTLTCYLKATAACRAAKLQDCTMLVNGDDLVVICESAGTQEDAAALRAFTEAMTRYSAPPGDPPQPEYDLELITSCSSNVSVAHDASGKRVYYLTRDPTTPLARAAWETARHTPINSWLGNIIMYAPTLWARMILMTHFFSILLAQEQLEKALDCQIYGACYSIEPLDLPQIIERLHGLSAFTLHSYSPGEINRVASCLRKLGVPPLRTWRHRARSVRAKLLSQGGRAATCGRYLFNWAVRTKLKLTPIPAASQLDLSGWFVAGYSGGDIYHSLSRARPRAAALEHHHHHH

The IC50 is the concentration that gives 50% inhibition. By EC50 is commonly meant the concentration at which the effect is half-maximal. In the case of `CC1(C)CC(=O)C2=C(C1)Nc1cc(C#N)ccc1NC2c1ccc(Cl)cc1Cl` (stereo not shown), the IC50 in test [1] was 9.35 µM. The concentration giving a half-maximal response (EC50) in test [2] was found to be 17 µM.

With `CC1(C)CC(=O)C2=C(C1)Nc1cccc(Br)c1NC2c1ccc(Cl)cc1Cl` (stereo not shown), the IC50 in test [1] turned out to be 25.6 µM. In addition, in test [2], the EC50 was determined as 5.17 µM.

Values taken from patent US20090221559A1 (priority 2005, published 2009).
